What was measured:
[1] = target: rat Type II sodium channel α-subunit (Rattus norvegicus, UniProt P04775)
fish = assay: Paralysis in fish by the synthetic peptide; conditions: pure synthetic peptide
nerve-muscle preparation = assay: Frog nerve-muscle preparation, motor nerve electrically stimulated
[2] = tested on: frog cutaneus pectoris muscle; assay: Directly-evoked action potentials in frog cutaneus pectoris muscle (extracellular recording, partitioned chamber)

The chains behind the UniProt entries cited, without tags or fusion partners.
UniProt P04775, whole entry: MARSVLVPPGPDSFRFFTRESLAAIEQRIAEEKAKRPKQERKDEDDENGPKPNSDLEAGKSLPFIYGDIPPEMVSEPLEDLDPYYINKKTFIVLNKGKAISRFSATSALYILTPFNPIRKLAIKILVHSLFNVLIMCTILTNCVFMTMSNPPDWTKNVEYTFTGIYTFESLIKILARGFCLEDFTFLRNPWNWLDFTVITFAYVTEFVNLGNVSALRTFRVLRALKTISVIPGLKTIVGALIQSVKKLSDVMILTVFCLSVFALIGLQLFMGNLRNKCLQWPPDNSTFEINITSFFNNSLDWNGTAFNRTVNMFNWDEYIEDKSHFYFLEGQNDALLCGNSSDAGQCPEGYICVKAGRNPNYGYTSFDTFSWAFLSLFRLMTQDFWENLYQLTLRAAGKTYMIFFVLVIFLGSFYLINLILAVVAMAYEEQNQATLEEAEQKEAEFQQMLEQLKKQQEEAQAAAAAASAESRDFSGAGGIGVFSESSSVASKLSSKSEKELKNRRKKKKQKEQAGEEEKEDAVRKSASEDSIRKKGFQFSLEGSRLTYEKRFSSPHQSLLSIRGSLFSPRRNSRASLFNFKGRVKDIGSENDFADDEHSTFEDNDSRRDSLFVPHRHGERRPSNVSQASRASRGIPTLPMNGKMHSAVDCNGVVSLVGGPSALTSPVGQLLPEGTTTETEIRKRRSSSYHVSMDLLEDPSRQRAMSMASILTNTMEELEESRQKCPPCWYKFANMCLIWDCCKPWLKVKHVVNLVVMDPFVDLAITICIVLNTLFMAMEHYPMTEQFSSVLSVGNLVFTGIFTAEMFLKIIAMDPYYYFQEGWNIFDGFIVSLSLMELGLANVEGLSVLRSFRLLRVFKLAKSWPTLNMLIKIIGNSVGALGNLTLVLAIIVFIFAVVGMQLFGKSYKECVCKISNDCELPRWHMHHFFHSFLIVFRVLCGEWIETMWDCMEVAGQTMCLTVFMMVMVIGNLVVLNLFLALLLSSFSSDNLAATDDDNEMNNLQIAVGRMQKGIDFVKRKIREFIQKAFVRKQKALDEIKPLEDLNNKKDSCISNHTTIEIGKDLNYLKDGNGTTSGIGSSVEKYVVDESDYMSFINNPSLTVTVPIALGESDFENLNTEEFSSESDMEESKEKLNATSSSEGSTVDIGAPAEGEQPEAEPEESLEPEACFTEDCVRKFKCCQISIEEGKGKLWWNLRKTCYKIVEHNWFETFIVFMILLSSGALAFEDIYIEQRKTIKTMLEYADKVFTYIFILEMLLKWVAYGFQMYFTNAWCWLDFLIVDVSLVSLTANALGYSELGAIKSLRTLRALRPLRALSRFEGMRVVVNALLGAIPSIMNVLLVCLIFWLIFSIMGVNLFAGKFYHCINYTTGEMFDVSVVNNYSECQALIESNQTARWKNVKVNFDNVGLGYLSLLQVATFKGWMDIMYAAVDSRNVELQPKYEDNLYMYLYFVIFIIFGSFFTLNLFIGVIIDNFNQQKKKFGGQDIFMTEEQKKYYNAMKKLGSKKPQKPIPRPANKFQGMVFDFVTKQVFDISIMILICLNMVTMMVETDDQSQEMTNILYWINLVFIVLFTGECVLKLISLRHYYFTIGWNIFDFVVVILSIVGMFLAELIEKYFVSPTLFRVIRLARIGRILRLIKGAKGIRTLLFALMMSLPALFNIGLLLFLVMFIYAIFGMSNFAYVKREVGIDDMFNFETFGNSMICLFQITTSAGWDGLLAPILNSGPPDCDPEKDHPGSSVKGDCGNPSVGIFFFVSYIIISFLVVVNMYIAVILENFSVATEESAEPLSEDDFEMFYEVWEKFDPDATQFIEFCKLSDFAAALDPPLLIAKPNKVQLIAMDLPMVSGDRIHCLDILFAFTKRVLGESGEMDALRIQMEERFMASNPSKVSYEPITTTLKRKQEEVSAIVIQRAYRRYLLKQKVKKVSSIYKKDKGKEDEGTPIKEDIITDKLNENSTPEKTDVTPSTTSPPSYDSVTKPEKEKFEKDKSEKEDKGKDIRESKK

CC(C)C[C@H](NC(=O)[C@H](CCCNC(=N)N)NC(=O)[C@@H]1CCC(=O)N1)C(=O)N[C@H]1CSSC[C@@H]2NC(=O)[C@H](CCC(N)=O)NC(=O)[C@H](CCCNC(=N)N)NC(=O)[C@H](CO)NC(=O)[C@H](CCCNC(=N)N)NC(=O)[C@@H]3CSSC[C@@H](C(N)=O)NC(=O)[C@H](CSSC[C@H](NC1=O)C(=O)NCC(=O)N[C@@H](Cc1ccccc1)C(=O)N1C[C@H](O)C[C@H]1C(=O)N[C@@H](CCCCN)C(=O)N[C@@H](CO)C(=O)N3)NC(=O)[C@H](CCCNC(=N)N)NC(=O)[C@H](Cc1c[nH]cn1)NC(=O)[C@@H]1C[C@@H](O)CN1C(=O)[C@H](CCCCN)NC2=O
block of Na+ currents ([1]; 2 μM in the bath solution): abolished nearly all | block of whole cell currents (FIG. 4B legend) ([1]; 2 mM added to the bath solution): profound block | reversibility of block ([1]; wash with Normal Frog Ringers solution): reversible | effect on fish (fish): flaccid paralysis | muscle twitching and action potentials on motor nerve stimulation (nerve-muscle preparation; entire nerve-muscle preparation exposed to toxin): completely abolished | propagation of action potentials in the motor axon (nerve-muscle preparation; excitatory post-synaptic responses still recorded): not blocked | reversibility in frog neuromuscular preparation compared with μ-GIIIA [2]: much more irreversibly | negative phase of the response (action potential in toxin-exposed segment D) ([2]; 1 μM, 23 minutes exposure): completely abolished | block of directly-evoked action potentials in frog muscle ([2]; 1 μM, toxin only in compartment D): blocks directly-evoked action potentials | recovery in segment D upon washing ([2]; washing for many hours in the absence of toxin): no recovery was observed

Source: patent US5670622A, “Conotoxin peptide PIIIA” (dated 1997)
